Measured values from several laboratories, pooled; numbers as filed in NIAID ChemDB.

Shared fields: tests in culture; organism: HIV-1; cell line: C8166; read-out: EC50

ECn is the concentration giving n% inhibition of infection, replication or growth. Lines come from different laboratories, so protocols vary. An empty or dashed field is not shown. Two numbers with a dash give a range or band.

smiles	strain or isolate	changes	method	value
CC(C)c1c(Cc2ccccc2)nc(SCC(=O)c2cccs2)[nH]c1=O	IIIB	-	syncytia	0.28 µM
O=C(CSc1nnnn1-c1ccccc1C(F)F)Nc1ccccc1[N+](=O)[O-]	WT	-	p24	<0.05 µM
Cc1nc2ccccc2c(-c2ccc(Cl)cc2)c1C(OC(C)C)C(=O)O	-	-	luciferase / reporter gene	<20 µM
C/C(=N\NC(=O)c1ccccc1)c1cn(S(=O)(=O)c2ccccc2)c2cc(C)ccc12	IIIB	-	syncytia / visual reading	0.49 µg/mL
Nc1ccn([C@@H]2CC[C@H](CO)O2)c(=O)n1	RF	-	syncytia	0.066 µM
Cc1ccc(C)c(NS(=O)(=O)c2cc(C(=O)NCc3ccccn3)ccc2Cl)c1	NL4-3	-	p24 / antigen	0.7 µM
NC(=O)c1[nH]c2ccc(Cl)cc2c1S(=O)(=O)c1ccccc1	IIIB	-	p24	<0.007 µM
CC(=O)OC[C@@H]1OC(Oc2ccc(C(=O)/C=C/c3ccc(O)c(O)c3)c(O)c2O)[C@@H](O)[C@H](OC(C)=O)[C@H]1OC(C)=O	MN	-	cytopathic effect / XTT	20 µM
O=[N+]([O-])c1ccc(COc2ccc([N+](=O)[O-])cc2)cc1	IIIB	-	syncytia	58.2 µg/mL
CCCCC/C(=N\NC(=O)c1ccccc1)c1cn(S(=O)(=O)c2ccc(C)cc2)c2ccccc12	IIIB	-	syncytia / visual reading	52.23 µg/mL
CCCC(C(=O)O)c1c(C)nc2ccc(Cl)cc2c1-c1ccc(F)c(F)c1	-	-	luciferase / reporter gene	<20 µM
CC(C)C[C@H]1NC(=O)C(Cc2c[nH]c3c(C45C[C@H]6C(=O)N[C@H](Cc7ccccc7)C(=O)N6[C@H]4Nc4ccccc45)cccc23)NC1=O	-	-	MTT	47.6 µM
CC(C)(C)c1ccc(-n2nnnc2SCC(=O)Nc2ccccc2Cl)c(Br)c1	WT	-	luciferase	<0.05 µM
Cc1cn([C@H]2C[C@H](N=[N+]=[N-])[C@@H](CO)O2)c(=O)[nH]c1=O	NL4-3	-	p24 / ELISA	0.00075 µM
CCN1c2ncc(CCOc3ccc(-c4ccc(C(=O)O)cc4)cc3C)cc2C(=O)N(C)c2cccnc21	-	RT-K103N Y181C	p24	<0.01 µM
CCN1c2ncc(CCOc3cccc4c3CN(O)C4=O)cc2C(=O)N(C)c2cccnc21	IIIB	-	p24	<0.01 µM
O=[N+]([O-])c1ccc(OCc2ccccc2)cc1	IIIB	-	syncytia	53.26 µg/mL
Nc1ccn([C@H]2CC[C@@H](CO)O2)c(=O)n1	RF	-	-	0.15 µM
O=C(CSc1nnnn1-c1cccc2ccccc12)Nc1cccc(Cl)c1Cl	WT	-	p24	<0.05 µM
Nc1nc(=O)n([C@@H]2CC[C@H](CO)O2)cc1F	RF	-	syncytia	0.043 µM
CCCCCCCCC(=O)O[C@@H]1[C@@H](C)[C@@]2(O)[C@@H](C=C(CO)C[C@@]3(O)C(=O)C(C)=C[C@@H]23)[C@@H]2C(C)(C)[C@]12OC(=O)CCCCCCCC	IIIB	-	p24 / ELISA	123 µM
CCN1c2ncc(CCOc3ccc(C(=O)NC(C)(C)CC(=O)O)cc3C)cc2C(=O)N(C)c2cccnc21	-	RT-K103N Y181C	p24	>0.05 µM
Cc1c(Cc2cccc3ccccc23)nc(SCC(=O)c2ccco2)[nH]c1=O	IIIB	-	syncytia	1.82 µM
C/C(=N\NC(=O)c1ccccc1)c1cn(S(=O)(=O)c2cccc([N+](=O)[O-])c2)c2ccccc12	IIIB	-	syncytia / visual reading	0.26 µg/mL
Cc1cc(C)cc(S(=O)(=O)c2c(C(=O)NC(C)C(=O)NN)[nH]c3ccc(Cl)cc23)c1	EFV-resistant (RT K103R V179D P225H)	-	p24	<0.7 µM
COc1cc(C(OC(=O)c2ccc3c(c2)OCO3)[C@H](C)C(C)O)cc(O)c1OC	-	-	-	3.18 µg/mL
CCCCOP(=O)(N[C@H](C(=O)OC)C(C)C)OC[C@H]1O[C@@H](n2cc(C)c(=O)[nH]c2=O)C[C@@H]1N=[N+]=[N-]	RF	-	p24	3 µM
CCN1c2ncc(CCOc3cccc4c3CNC4=O)cc2C(=O)Nc2c(C)ccnc21	-	RT-K103N Y181C	p24	<0.01 µM
CCN1c2ncc(CCOc3ccc(-c4ccc[n+]([O-])c4C)cc3C)cc2C(=O)N(C)c2cccnc21	-	RT-K103N Y181C	p24	<0.01 µM
Cc1c(Cc2cccc3ccccc23)nc(SCC(=O)c2cccs2)[nH]c1=O	IIIB	-	syncytia	1.92 µM
Cc1nc2ccc(Cl)cc2c(-c2ccc3c(c2)OCCO3)c1C(OC(C)C)C(=O)O	-	-	luciferase / reporter gene	<20 µM
C/C=C/C(=O)O[C@@]12[C@H](O)[C@@H](C)[C@@]3(O)[C@@H](C=C(CO)C[C@]4(O)C(=O)C(C)=C[C@@H]34)[C@@H]1C2(C)C	IIIB	-	p24 / ELISA	21.99 µM
CCCCCCOP(=O)(N[C@H](C(=O)OC)C(C)C)OC[C@H]1O[C@@H](n2cc(C)c(=O)[nH]c2=O)C[C@@H]1N=[N+]=[N-]	RF	-	p24	10–30 µM
Cc1nc2ccc(Cl)cc2c(-c2ccsc2Cl)c1C(OC(C)C)C(=O)O	-	-	luciferase / reporter gene	<20 µM
CCN1c2ncc(CCOc3cccc4c3CS(=O)(=O)N4CC(=O)O)cc2-c2nccn2-c2c(C)ccnc21	-	-	p24	>0.05 µM
CCN1c2ncc(CCOc3ccc(-n4nc(C(=O)O)cc4C)cc3C)cc2C(=O)N(C)c2cccnc21	IIIB	-	p24	>0.05 µM
CC/C=C\C/C=C\C/C=C\C/C=C\C/C=C\CCCC(=O)OCC1=C[C@H]2[C@@H]3C(C)(C)[C@]3(OC(=O)CCC/C=C\C/C=C\C/C=C\C/C=C\C/C=C\CC)[C@H](OC(=O)CCC/C=C\C/C=C\C/C=C\C/C=C\C/C=C\CC)[C@@H](C)[C@]2(O)[C@@H]2C=C(C)C(=O)[C@@]2(O)C1	IIIB	-	p24 / ELISA	41.74 µM
O=C(O)[C@H]1O[C@@H](Oc2cc3oc(-c4ccc(O)cc4)cc(=O)c3c(O)c2O)[C@H](O)[C@@H](O)[C@@H]1O	IIIB	-	p24	175 µM
CCOP(=O)(NCC(=O)OC)OC[C@H]1O[C@@H](n2cc(C)c(=O)[nH]c2=O)C[C@@H]1N=[N+]=[N-]	RF	-	p24	10 µM
CCOC(=O)c1nnsc1Nc1ccccc1Nc1snnc1C(=O)OCC	NL4.3/DS5000R	-	p24	10 µM
C=C(C)[C@@H]1C[C@@H](C)[C@H](C)c2cc(O)c(C)cc21	-	-	cytopathic effect	12.8 µg/mL
NC(N)=Nc1cccc(Oc2ccccc2)c1	IIIB	-	-	6 µM
Cc1cc(C)cc(S(=O)(=O)c2c(C(=O)NCC(=O)NC(C)C(=O)NN)[nH]c3ccc(Cl)cc23)c1	EFV-resistant (RT K103R V179D P225H)	-	p24	<1 µM
CC/C=C\C/C=C\C/C=C\C/C=C\C/C=C\CCCC(=O)O[C@@H]1[C@@H](C)[C@@]2(O)[C@@H](C=C(CO)C[C@]3(O)C(=O)C(C)=C[C@@H]23)[C@@H]2C(C)(C)[C@]12OC(C)=O	IIIB	-	syncytia / visual reading	0.0606 µM
COc1cc(O)c(CC=C(C)C)c(O)c1C(=O)/C=C/c1ccc(O)cc1	IIIB	-	RT activity	1.22 µM
Cc1cc(C)cc(S(=O)(=O)c2c(C(=O)NCC(N)=O)[nH]c3ccc(Cl)cc23)c1	IIIB	-	p24	<0.01 µM
Nc1nc(=O)n([C@H]2CC[C@@H](CO)O2)cc1F	RF	-	p24	0.166 µM
Cc1cccc(OCc2ccccc2)c1	IIIB	-	syncytia	44.87 µg/mL
CC(C)C[C@H]1NC(=O)C(Cc2cn([C@]34C[C@H]5C(=O)N[C@H](Cc6ccccc6)C(=O)N5[C@H]3Nc3ccccc34)c3ccccc23)NC1=O	-	-	MTT	>100 µM
Cc1cc(C)c(-n2nnnc2SCC(=O)Nc2ccc3c(c2)OCO3)c(C)c1	WT	-	p24	<0.05 µM
CCN1c2ncc(CCOc3ccc(-c4ccc(CC(=O)O)cc4)cc3C)cc2-c2nccn2-c2cccnc21	-	-	p24	<0.01 µM
CC(C)c1c(Cc2ccccc2)nc(SCCc2ccccc2)[nH]c1=O	IIIB	-	syncytia	1.04 µM
CCCCOP(=O)(NC(C(=O)OC)C(C)C)OC[C@H]1O[C@@H](n2cc(C)c(=O)[nH]c2=O)C[C@@H]1O	RF	-	p24	>100 µM
Cc1nc2ccccc2c(-c2ccc(CF)cc2)c1[C@H](OC(C)(C)C)C(=O)O	-	-	luciferase / reporter gene	<20 µM
CCN1c2ncccc2NC(=O)c2cc(CCOc3ccc(-c4ccc[n+]([O-])c4)cc3C)cnc21	-	RT-K103N Y181C	p24	0.01–0.05 µM
COc1cc2c(c(OC)c1OC)-c1c(cc(OC(C)=O)c(OC)c1OC)C[C@H](C)[C@H](C)[C@H]2OC	-	-	MTT	1.82 µg/mL
CCN1c2ncc(CCOc3cccc4c3CNC(=O)N4C)cc2C(=O)N(C)c2cccnc21	-	RT-K103N Y181C	p24	<0.01 µM
CCN1c2ncc(CCOc3cccc4c3C=CS(=O)(=O)N4C)cc2-c2ncc(C)n2-c2cccnc21	-	-	p24	<0.01 µM
COc1ccc(S(=O)(=O)n2cc(/C(C)=N/NC(=O)c3ccccc3)c3ccccc32)cc1	IIIB	-	syncytia / visual reading	0.16 µg/mL
CCN1c2ncc(CCOc3cccc4c3CN(C)C(=O)N4C)cc2C(=O)N(C)c2cccnc21	IIIB	-	p24	<0.01 µM
CCOP(=O)(N[C@@H](CC(C)C)C(=O)OC)OC[C@H]1O[C@@H](n2cc(C)c(=O)[nH]c2=O)C[C@@H]1N=[N+]=[N-]	RF	-	p24	30 µM
CCCC(C(=O)O)c1c(OC)nc2ccc(Br)cc2c1-c1ccc(Cl)cc1	-	-	luciferase / reporter gene	<20 µM
CCCCCCCCCCCCCC(=O)O[C@@H]1[C@@H](C)[C@@]2(O)[C@@H](C=C(CO)C[C@]3(O)C(=O)C(C)=C[C@@H]23)[C@@H]2C(C)(C)[C@]12O	IIIB	-	p24 / ELISA	1.625 µM
C/C(=N\NC(=O)c1ccccc1)c1cn(S(=O)(=O)c2ccc(C)cc2)c2ccc(C#N)cc12	IIIB	-	syncytia / visual reading	59.99 µg/mL
COc1ccc(CCSc2nc(Cc3cccc4ccccc34)c(C(C)C)c(=O)[nH]2)cc1	IIIB	-	syncytia	20.9 µM
CN(C)CC(=O)Nc1ccc(-c2nc(=O)n(C)c3c2oc2ccccc23)cc1	-	-	luciferase	1.6 µM

The last 10 rows once more:

smiles | strain or isolate | changes | method | value
CCN1c2ncc(CCOc3cccc4c3CNC(=O)N4C)cc2C(=O)N(C)c2cccnc21 | - | RT-K103N Y181C | p24 | <0.01 µM
CCN1c2ncc(CCOc3cccc4c3C=CS(=O)(=O)N4C)cc2-c2ncc(C)n2-c2cccnc21 | - | - | p24 | <0.01 µM
COc1ccc(S(=O)(=O)n2cc(/C(C)=N/NC(=O)c3ccccc3)c3ccccc32)cc1 | IIIB | - | syncytia / visual reading | 0.16 µg/mL
CCN1c2ncc(CCOc3cccc4c3CN(C)C(=O)N4C)cc2C(=O)N(C)c2cccnc21 | IIIB | - | p24 | <0.01 µM
CCOP(=O)(N[C@@H](CC(C)C)C(=O)OC)OC[C@H]1O[C@@H](n2cc(C)c(=O)[nH]c2=O)C[C@@H]1N=[N+]=[N-] | RF | - | p24 | 30 µM
CCCC(C(=O)O)c1c(OC)nc2ccc(Br)cc2c1-c1ccc(Cl)cc1 | - | - | luciferase / reporter gene | <20 µM
CCCCCCCCCCCCCC(=O)O[C@@H]1[C@@H](C)[C@@]2(O)[C@@H](C=C(CO)C[C@]3(O)C(=O)C(C)=C[C@@H]23)[C@@H]2C(C)(C)[C@]12O | IIIB | - | p24 / ELISA | 1.625 µM
C/C(=N\NC(=O)c1ccccc1)c1cn(S(=O)(=O)c2ccc(C)cc2)c2ccc(C#N)cc12 | IIIB | - | syncytia / visual reading | 59.99 µg/mL
COc1ccc(CCSc2nc(Cc3cccc4ccccc34)c(C(C)C)c(=O)[nH]2)cc1 | IIIB | - | syncytia | 20.9 µM
CN(C)CC(=O)Nc1ccc(-c2nc(=O)n(C)c3c2oc2ccccc23)cc1 | - | - | luciferase | 1.6 µM